From article PMC10189885, “Transcription activation by the resistance protein AlbA as a tool to evaluate derivatives of the antibiotic albicidin” (Chemical Science, 2023) come the findings set out here.

The subject of the assay is S. Typhimurium TA100. The experiment in a line: MIC determination (microdilution). The conditions noted are these: Salmonella enterica, MHBII, 37 °C, 20 h. It is filed as cell-based. On the procedure: E. coli growth inhibition assay
liquid culture were conducted.
All assays were set up in triplicates.
scanner (Epson) with argusX.
overnight at 37 °C, 200 rpm shaking.
95 μL of the inoculum were applied
Previously, the dry antibiotic compounds were
The antimicrobial effect of the solvent
Both microdilution trays and agar plates
DNA-Gyrase inhibition testing
The final DMSO concentration was 3%.
AlbA and its mutants were diluted in […]

≈ marks a conversion by molar mass, not a printed value. Bounds are passed on as bounds.

The term MIC denotes the lowest concentration found to suppress growth. `CC(C)Oc1c(NC(=O)c2ccc(NC(=O)[C@H](Cc3c[nH]nn3)NC(=O)c3ccc(NC(=O)c4ccc(C#N)cc4)cn3)cn2)ccc(C(=O)Nc2ccc(C(=O)O)cc2)c1O` [Compound 11] yielded an MIC of 0.016 mg/L (≈ 0.0191 µM).

Regarding `COc1c(NC(=O)c2ccc(NC(=O)c3ccc(NC(=O)[C@H](Cc4c[nH]nn4)NC(=O)c4ccc(C#Cc5ccc(C#N)cc5)cc4)cn3)c(OC)c2O)ccc(C(=O)O)c1O` [Compound 10], the MIC is ≤ 0.016 mg/L.
